Compound potency records, mixed from different reports. Data source: NIAID ChemDB in PubChem.

All rows: whole-cell or culture tests; organism: Rhinovirus; cells: HeLa; endpoint: EC50

ECn is the concentration giving n% inhibition of infection, replication or growth.

structure	strain or isolate	read by	result
CS(=O)(=O)c1ccc(Cc2ccc(N)cc2)nc1	TYPE 1A	cytopathic effect	>10 µg/mL
Cc1ccc(C(=O)CCCCOc2ccc(C3=NCCO3)cc2)cc1	Serotype 2	cytopathic effect	>296 µM
Cc1ccc(CCCOc2c(C)cc(-c3noc(C(F)F)n3)cc2C)nn1	serotypes 3 4 5 9 16 18 38 66 75 67	cytopathic effect	0.033 µg/mL
CCOC(=O)c1ccc(OCCC2CCN(c3ccc(C)nn3)CC2)cc1	Serotype 54	cytopathic effect	<0.1 µg/mL
CCN(CC)c1cc(-c2ccc(OC)cc2OC)on1	Serotype 29 (group B)	cytopathic effect	>362 µM
CCc1nc(-c2cc(C)c(OCCCc3cc(COC)no3)c(C)c2)no1	Serotype 41	cytopathic effect	0.173 µg/mL
CS(=O)(=O)c1ccc(NCc2ccc(Cl)c(Cl)c2)nc1	TYPE 8	cytopathic effect	>10 µg/mL
Cc1nc(-c2cc(C)c(OCCCc3cc(C4CC4)no3)c(C)c2)no1	Serotype 30	cytopathic effect	0.048 µg/mL
CC(C)S(=O)(=O)c1ccc(Cc2ccc(Cl)c(Cl)c2)nc1	TYPE 1A	cytopathic effect	0.3 µg/mL
CCOc1cc(CCCOc2c(C)cc(-c3noc(C)n3)cc2C)on1	Serotype 21	cytopathic effect	0.008 µg/mL
CSc1ccc(C(=O)CCCCOc2ccc(C3=NCCO3)cc2)cc1	Serotype 14	cytopathic effect	5.1 µM
CCS(=O)(=O)c1ccc(NCc2ccc(Cl)c(Cl)c2)nc1C#N	TYPE 2	cytopathic effect	0.6 µg/mL
CCOC(=O)c1ccc(OCCCCC(=O)c2ccc(OC)cc2)cc1	Serotype 14	cytopathic effect	2.2 µM
Cc1ccc(CCCOc2c(C)cc(-c3nnn(C)n3)cc2C)o1	serotypes 2 14 1A 1B 6 21 22 15 25 30 50 67 89 86 41	cytopathic effect	0.128 µg/mL
N#Cc1ccc(OCCCCC(=O)c2ccc(Cl)cc2)cc1	Serotype 2	cytopathic effect	>319 µM
COc1ccc(-c2cc(N3CCCC3)no2)c(O)c1	Serotype 70 (group A)	cytopathic effect	>384 µM
Cc1cc(CCCCCOc2c(Cl)cc(C3=NCCO3)cc2Cl)on1	TYPE 13	plaque count	0.23 µg/mL
CS(=O)(=O)c1ccc(Oc2ccc(C(=O)c3ccccc3)cc2)nc1	TYPE 10	cytopathic effect	10 µg/mL
Cc1cc(OCCCc2ccc(C(C)F)nn2)ccc1-c1noc(C(F)F)n1	serotypes 3 4 5 9 16 18 38 66 75 67	cytopathic effect	0.05 µg/mL
Cc1cc(CCCCCCCOc2ccc(C3=NCCO3)cc2)on1	Serotype 2	cytopathic effect	2.3 µM
CCOc1ccc(-c2onc(N(CC)CC)c2Cc2c(N(CC)CC)noc2-c2ccc(O)cc2O)c(O)c1	Serotype 14	cytopathic effect	>17 µM
O=C(CCCCOc1ccc(C2=NCCO2)cc1)c1ccc(Cl)cc1	Serotype 2	cytopathic effect	>280 µM
Cc1cnnc(CCCOc2cc(C)c(-c3noc(C)n3)c(C)c2)c1	serotypes 3 4 5 9 16 18 38 66 75 67	cytopathic effect	0.58 µg/mL
CCOc1cc(OC)ccc1-c1cc(N(CC)CC)no1	Serotype 29 (group B)	cytopathic effect	>90 µM
CCS(=O)(=O)c1cccnc1Oc1ccc(C(=O)c2ccccc2)cc1	TYPE 2	cytopathic effect	>10 µg/mL
CS(=O)(=O)c1ccc(Cc2ccc(Cl)c(Cl)c2)nc1	TYPE 13	cytopathic effect	>10 µg/mL
C#CCOc1cc(OC)ccc1-c1cc(N(CC)CC)no1	Serotype 45 (group A)	cytopathic effect	>40 µM

The last 2 rows once more:

structure | strain or isolate | read by | result
CS(=O)(=O)c1ccc(Cc2ccc(Cl)c(Cl)c2)nc1 | TYPE 13 | cytopathic effect | >10 µg/mL
C#CCOc1cc(OC)ccc1-c1cc(N(CC)CC)no1 | Serotype 45 (group A) | cytopathic effect | >40 µM

Conditions beyond the fields shown may differ between rows.